According to article PMC6684085, “Intragenic antimicrobial peptides (IAPs) from human proteins with potent antimicrobial and anti-inflammatory activity” (PLoS ONE, 2019):
Ends that are not written are not given here.

Test: Far-UV circular dichroism, percent helicity
Format: physicochemical
Conditions: CD, room temperature, [θ]222, method of Chen et al.; for % Helicity Buffer: 40 μM peptide in phosphate buffer

LFNNYITAALKLLEKLYKV-NH2 [Hs04]
% Helicity Buffer: 35.6% | % Helicity Buffer (listed as 04): ~30% | % Helicity 2:1 DMPC:PG (40 μM peptide, 50-fold molar excess (2 mM) 2:1 DMPC:DMPG LUVs): 91.3% | %Helicity DMPC (40 μM peptide, 50-fold molar excess (2 mM) DMPC LUVs): 50.8%
